Data on six substances can be found in PMC4929710, “Specificity and mechanism of action of alpha-helical membrane-active peptides interacting with model and biological membranes by single-molecule force spectroscopy” (Scientific Reports, 2016).

What all share (test): Tryptophan fluorescence with LUVs
Common to all, as to format: binding

Data set [1] deals with PC/SM/PE/PS/Chol (4.35:4.35:1:0.3:1 w/w) LUVs. The settings on record: for PC/SM/PE/PS/Chol Wavelength (emission maximum): PC/SM/PE/PS/Chol (4.35:4.35:1:0.3:1 w/w) LUVs, HEPES pH 7.4, 25 °C, 10 min; for PC/SM/PE/PS/Chol Intensity: tryptophan fluorescence intensity, PC/SM/PE/PS/Chol LUVs, 25 °C. From the text: (§1) In order to investigate the interaction between peptides and difference types of cell membranes, three different LUVs were used to mimic a prokaryotic cell membrane (PC/PG), a normal eukaryotic cell membrane (PC/Chol), and a cancer cell membrane (PC/SM/PE/PS/Chol). Tryptophan residue in the peptide sequence was used as a fluorescent probe to examine the interaction of peptides with model membranes. […] For example, in the PC/PG (7:3 w/w) anionic prokaryotic mimicking model membrane, peptides V13L and A12L/A20L had the strongest hydrophobicity with blue shift values of approximately 37 nm and 38 nm, respectively. Conversely, peptide V13E with a negative charge of glutamic acid residue, and peptide L6A/L17A with the lowest hydrophobicity had blue shift values of approximately 18 nm and 17 nm, respectively. […] In addition, within PC/SM/PE/PS/Chol (4.35:4.35:1:0.3:1 w/w) as a cancer-mimicking model membrane, the same results could be obtained in that peptide hydrophobicity correlates with anticancer activity and the blue shift values of peptides.
(§2) In accordance with previously described methods, LUVs were prepared with PC/PG (7:3 w/w), PC/Chol (8:1 w/w), and PC/SM/PE/PS/Chol (4.35:4.35:1:0.3:1 w/w) to mimic prokaryotic cell, […], membranes, respectively. Lipids using the freeze-thaw method as described previously, followed by extrusion through […] double-stacked nuclepore filters using an Mini-Extruder (Avanti Polar Lipids, Inc.)[11][27].
(§3) Three kinds of LUVs were prepared and cultured in HEPES buffer (pH 7.4, 10 mM HEPES, 150 mM NaCl) and the molar concentration was adjusted to 100 μM. A total of 14 μL of 100 μM MAPs was mixed with 686 μL of 100 μM liposomes at 25 °C for 10 min. A Shimadzu RF-5301PC, (excitation wavelength of […], emission wavelength of 300–450 nm) was used to measure the tryptophan fluorescence. Potassium iodide (KI) as a quencher was added to the previous reaction system for a final concentration of 0.02–0.08 M, respectively. The experimental data were plotted according to the Stern–Volmer equation F0/F = 1 + Ksv[Q], where F0 and F are the fluorescence intensity in the absence or presence of a quencher at concentration [Q], respectively, and Ksv is the Stern–Volmer quenching constant.

Data set [2] relates to PC/Chol (8:1 w/w) LUVs. The settings on record: for PC/Chol Wavelength (emission maximum): HEPES pH 7.4, 25 °C, 10 min; for PC/Chol Intensity: tryptophan fluorescence intensity, 25 °C.
Source text: as §1, §2, §3

Data set [3] has as its system PC/PG (7:3 w/w) LUVs. The settings on record: HEPES pH 7.4, 25 °C, 10 min.
Source text: as §1, §2, §3

For the substance “Ac-KWKSFLKTFKSAEKTVLHTALKAISS-NH2 [Peptide V13E]”, in data set [1], the “PC/SM/PE/PS/Chol Wavelength (emission maximum)” value (shortened to “PC/SM/PE/PS/Chol Wavelength”) was 326 nm and the “PC/SM/PE/PS/Chol Intensity” value is on record as 260.90. Besides, in data set [2], the “PC/Chol Wavelength (emission maximum)” value worked out at 348 nm and the “PC/Chol Intensity” value is reported as 136.25. Further, the “PC/PG Wavelength (emission maximum)” value in data set [3] is given as 331 nm.
For “Ac-KWKSFLKTFKSALKTVLHTALKAISS-NH2 [Peptide V13L]” the same measures were 316 nm, 380.24, 335 nm, 281.14 and 309 nm.
Regarding “Ac-KWKSFLKTFKSASKTVLHTALKAISS-NH2 [Peptide V13S]”, in data set [1], the “PC/SM/PE/PS/Chol Wavelength” value was 319 nm and the “PC/SM/PE/PS/Chol Intensity” value was 342.76. Also, in data set [2], the “PC/Chol Wavelength (emission maximum)” value worked out at 347 nm and the “PC/Chol Intensity” value stood at 85.51. Also, the “PC/PG Wavelength (emission maximum)” value in data set [3] amounted to 323 nm.
For “Ac-KWKSFAKTFKSAKKTVAHTALKAISS-NH2 [L6A/L17A]” the same measures were 329 nm, 213.77, 350 nm, 71.60 and 334 nm.
For “Ac-KWKSFLKTFKSAAKTVLHTALKAISS-NH2 [Peptide V13A]” the same measures were 316 nm, 368.92, 343 nm, 173.85 and 313 nm.
For “Ac-KWKSFAKTFKSAKKTVLHTALKAISS-NH2 [Peptide L6A]”, in data set [1], the “PC/SM/PE/PS/Chol Wavelength” value amounted to 326 nm and the “PC/SM/PE/PS/Chol Intensity” value was found to be 295.77. Further, in data set [2], the “PC/Chol Wavelength (emission maximum)” value is 348 nm and the “PC/Chol Intensity” value was found to be 64.43. Further, in data set [3], the “PC/PG Wavelength (emission maximum)” value amounted to 330 nm.
